Results of unrelated studies side by side (data: NIAID ChemDB).

Common to all: growth or infection tests; organism: Mycobacterium tuberculosis

ECn is the concentration giving n% inhibition of infection, replication or growth.

smiles,method,changes,tested at,read-out,cell line,strain or isolate,value
CCCCc1c2c(nn1C(C)=O)C(=O)C=C(Nc1ccccc1)C2=O,BACTEC,,6.25 µg/mL,inhibition,,H37Rv,0%
O=C1CC(c2ccccc2)Oc2c(I)cccc21,,,12.5 µg/mL,inhibition,,,5%
Oc1ccc(CCNCCN[C@@H](c2ccccc2)[C@H](O)c2ccccc2)cc1O,,,,MIC,,,50 µM
CC1C(=O)OCN1S(=O)(=O)C(C)(C)C,BACTEC,,,MIC bound,,H37Rv,>12.5 µg/mL
COc1cc([N+](=O)[O-])c2ncccc2c1,,,,MIC,,H37Rv,>100 µg/mL
COc1ccc(C2Oc3ccccc3C(=O)C2O)cc1,,,12.5 µg/mL,inhibition,,H37Rv,48%
CCOC(=O)Nc1cc(NC(c2ccccc2)c2ccccc2)c(N=Cc2ccc(Cl)cc2Cl)c(N)n1,,,,EC50,,H37Rv,>12.5 µg/mL
NNC(=O)c1ccncc1,broth dilution,Rifampicin- and isoniazid-resistant,,MIC,,Clinical isolate 1868,<10 µM
CC(C)c1ccc2c(c1)CC[C@H]1[C@](C)(CNCCNCc3ccc4c(c3)OCO4)CCC[C@]21C,,,,MIC,,,12.5 µM
CCOC(=O)Nc1cc(Nc2ccccc2)c([N+](=O)[O-])c(N)n1,,,,EC50,,H37Rv,<12.5 µg/mL
c1ccc2c(SSc3cccc4ccccc34)cccc2c1,,,,MIC,,H37Rv,>100 µg/mL
CC(=O)N1c2ccccc2C2=NN=C(N(C)C)SC21,resazurin,,6.25 µg/mL,inhibition,,H37Rv,93%
CCOC(=O)c1ccc(-n2c(=O)oc3ccccc3c2=O)cc1,,,,MIC,,CNCTC MY331/88,16 µM
COC(=O)C12OC[C@]34[C@H]([C@@H](O)[C@@H]1O)[C@@]1(C)C=C(O[C@@H]5O[C@H](CO)[C@@H](O)[C@H](O)[C@H]5O)C(=O)[C@@H](C)[C@@H]1C[C@H]3OC(=O)[C@H](OC(=O)/C=C(\C)C(C)C)[C@@H]24,BACTEC,,,MIC bound,,H37Rv,>12.5 µg/mL
Nc1ncccc1/C=C/C(=O)c1cc(Cl)ccc1O,,,12.5 µg/mL,inhibition,,,0%
Fc1ccccc1CCNCCNCC12CC3CC(CC(C3)C1)C2,,,,MIC,,,50 µM
CO[C@H]1/C=C/O[C@@]2(C)Oc3c(C)c(O)c4c(O)c(c5c(c4c3C2=O)NC2(CCN(CC(C)C)CC2)N=5)=NC(=O)/C(C)=C\C=C\[C@H](C)[C@H](O)[C@@H](C)[C@@H](O)[C@@H](C)[C@H](OC(C)=O)[C@@H]1C,,,,MBC,,35 (rifampin-resistant),0.2 µg/mL
CCOC(=O)c1ccc(-n2c(=O)oc3ccc(Cl)cc3c2=O)cc1,,,,MIC,,CNCTC MY331/88,8 µM
Cc1cccc2c1C(=O)C(=O)c1cc(C(C)C)ccc1-2,,,,MIC,,H37Rv,>100 µg/mL
Cc1c(C(=O)/C=C/c2ccccc2[N+](=O)[O-])[n+](=O)c2ccccc2n1[O-],,,,MIC,,INH-r,3.1 µg/mL
CCCCCCCCOCC(=O)O,,,,MIC,,H37Rv,>100 µg/mL
CO[C@H]1/C=C/O[C@@]2(C)Oc3c(C)c(O)c4c(O)c(c(/C=N/N5CCN(C)CC5)c(O)c4c3C2=O)NC(=O)/C(C)=C\C=C\[C@H](C)[C@H](O)[C@@H](C)[C@@H](O)[C@@H](C)[C@H](OC(C)=O)[C@@H]1C,broth dilution,Rifampicin- and isoniazid-resistant,,MIC,,Clinical isolate 10525,>10 µM
Cc1c2sc3ccccc3nc-2c2ccccc2c1=O,BACTEC,,12.5 µg/mL,inhibition,,H37Rv,99%
O=C(NCCCN1CCOCC1)NCCCN1CCOCC1,,,,MIC,,H37Rv,>100 µg/mL
CO/C(C)=C1/NC(=O)[C@H]([C@@H](C)O)NC(=O)c2csc(n2)-c2cc(O)c(-c3nc(C(=O)NCc4cnn(C)c4)cs3)nc2-c2csc(n2)[C@@H]2COC(=O)c3c4c5c(cccc5n3O)COC(=O)[C@@H](O[C@H]3C[C@](C)(O)[C@H](N(C)C)[C@H](C)O3)[C@@H](OC4)[C@H](NC(=O)c3csc1n3)c1nc(cs1)C(=O)N2,broth dilution,,,MIC,,H37Rv,≤1 µM
CCCCC(CC)CN1CN(CC(CC)CCCC)CC(C)(NCCNCc2ccc(OC)cc2OC)C1,,,,MIC,,,25 µM
CO/C(C)=C1/NC(=O)[C@H]([C@@H](C)O)NC(=O)c2csc(n2)-c2cc(O)c(-c3nc(C(=O)NCCCN4CCOCC4)cs3)nc2-c2csc(n2)[C@@H]2COC(=O)c3c4c5c(cccc5n3O)COC(=O)[C@@H](O[C@H]3C[C@](C)(O)[C@H](N(C)C)[C@H](C)O3)[C@@H](OC4)[C@H](NC(=O)c3csc1n3)c1nc(cs1)C(=O)N2,broth dilution,,,MIC,,Clinical isolate 11677,≤25 µM
COc1ccc2ncc(COC(=O)Nc3ccccc3)c(COC(=O)Nc3ccccc3)c2c1,BACTEC,,12.5 µg/mL,inhibition,,H37Rv,94%
C=C(NC(=O)c1csc(-c2nc3c(cc2O)-c2nc(cs2)C(=O)N[C@@H]([C@@H](C)O)C(=O)N/C(=C(\C)OC)c2nc(cs2)C(=O)N[C@@H]2c4nc(cs4)C(=O)N[C@@H](COC(=O)c4c5c6c(cccc6n4O)COC(=O)[C@@H](O[C@H]4C[C@](C)(O)[C@H](N(C)C)[C@H](C)O4)[C@H]2OC5)c2nc-3cs2)n1)C(N)=O,broth dilution,Isoniazid- and moxifloxacin-resistant,,MIC,,Clinical isolate 18343,≤2.5 µM
CO[C@H]1/C=C/O[C@@]2(C)Oc3c(C)c(O)c4c(=O)c(c5oc6cc(N7CCN(C(C)C)CC7)cc(=O)c6nc5c4c3=C2O)NC(=O)/C(C)=C\C=C\[C@H](C)[C@H](O)[C@@H](C)[C@@H](O)[C@@H](C)[C@H](OC(C)=O)[C@@H]1C,,,,MBC,,35 (rifampin-resistant),0.4 µg/mL
COc1ccccc1N,,,,MIC,,H37Rv,>100 µg/mL
CCCCC(CC)CN1CN(CC(CC)CCCC)CC(C)(NCCNCC2(O)CCCCC2)C1,,,,MIC,,,6.25 µM
Nc1ccc(-c2ccccc2O)cc1,,,,MIC,,H37Rv,>100 µg/mL
CCOC(=O)Nc1cc(NC(C)C(=O)c2ccc(O)cc2)c([N+](=O)[O-])c(N)n1,,,12.5 µg/mL,inhibition,,H37Rv,0%
CCCCCCCCCCCNCCNC(C)Cc1ccc(Cl)cc1,,,,MIC,,,50 µM
CCOC(=O)c1[nH]c(=O)c2ccccc2c1O,BACTEC,,,MIC bound,,H37Rv,>12.5 µg/mL
C=CCNc1nc(N)nc(Nc2ccccc2)n1,,,,MIC,,H37Rv,>100 µg/mL
CC1CCCCN1/N=N/c1nc2c([nH]1)c(=O)n(C)c(=O)n2C,resazurin,,,MIC bound,,H37Rv,>6.25 µg/mL
CO[C@H]1/C=C/O[C@@]2(C)Oc3c(C)c(O)c4c(O)c(c(/C=N/N5CCN(C6CCCC6)CC5)c(O)c4c3C2=O)NC(=O)/C(C)=C\C=C\[C@H](C)[C@H](O)[C@@H](C)[C@@H](O)[C@@H](C)[C@H](O)[C@@H]1C,,,,MIC,,Isolate 920492 rifampicin-resistant,>64 µg/mL
COc1ccccc1CCNCCNCCc1ccc(Cl)cc1Cl,,,,MIC,,,50 µM
Cc1ccc(C(=O)Nc2ccc(S(=O)(=O)O)c3cc(S(=O)(=O)O)cc(S(=O)(=O)O)c23)cc1NC(=O)c1cccc(NC(=O)Nc2cccc(C(=O)Nc3cc(C(=O)Nc4ccc(S(=O)(=O)O)c5cc(S(=O)(=O)O)cc(S(=O)(=O)O)c45)ccc3C)c2)c1,BACTEC,,12.5 µg/mL,inhibition,,H37Rv,0%
COc1ccc(CNCCNCc2ccccc2Sc2ccccc2CO)cc1OC,,,,MIC,,,6.25 µM
COc1cc2c(cc1OC)C(O)C(O)(CO)C(C(=O)O)C2c1cc(OC)c(OC)c(OC)c1,BACTEC,,,MIC bound,,H37Rv,>12.8 µg/mL
CN(C)c1ccc(C(=O)O)cc1N=Nc1ccc(S(=O)(=O)O)cc1,,,,MIC,,H37Rv,>100 µg/mL
Cc1ccc2c(=O)n(-c3cccc(Cl)c3)c(=O)oc2c1,,,,MIC,,CNCTC MY331/88,16 µM
CCn1c2ccccc2c2ccccc21,,,,MIC,,H37Rv,>100 µg/mL
Cc1ccc2oc(=O)n(-c3cccc(Cl)c3)c(=O)c2c1,,,,MIC,,CNCTC MY331/88,16 µM
CC(C)=CCC/C(C)=C/CNCCNCCC(c1ccccc1)c1ccccc1,,,,MIC,,,50 µM
O=[N+]([O-])c1ccccc1S(=O)(=O)c1ccccc1,resazurin,,,MIC bound,,H37Rv,>6.25 µg/mL
CCCCC(CC)CN1CN(CC(CC)CCCC)CC(C)(NCCNCC2CCCO2)C1,,,,MIC,,,12.5 µM
Cc1cc(C)nc(NS(=O)(=O)c2ccc(NC(=O)c3cccn4c(=O)c5ccccc5nc34)cc2)n1,resazurin,,,MIC bound,,H37Rv,>6.25 µg/mL
CN(C)c1ccc(/C=C/C(=O)c2ccccn2)cc1,,,,EC50,,,>12.5 µg/mL
NC(=O)c1c(N)nn2c(-c3ccccc3)cc(-c3ccccc3)cc12,resazurin,,,MIC bound,,H37Rv,<6.25 µg/mL
CO[C@H]1/C=C/O[C@@]2(C)Oc3c(C)c(O)c4c(O)c(c(/C=N/N5CCN(C)CC5)c(O)c4c3C2=O)NC(=O)/C(C)=C\C=C\[C@H](C)[C@H](O)[C@@H](C)[C@@H](O)[C@@H](C)[C@H](OC(C)=O)[C@@H]1C,,,,MIC,,TN728,>32 µg/mL
COc1ccc2c(c1O)-c1cc(O)cc3c1C(C2)N(C)CC3.Cl,BACTEC,,,MIC bound,,H37Rv,>12.8 µg/mL
O=CNc1cccc(Cl)c1,,,,MIC,,H37Rv,50 µg/mL
CCOC(=O)Nc1cc(NCC(=O)CN(C)c2ccccc2)c([N+](=O)[O-])c(NC(=O)OCC)n1,,,,EC50,,H37Rv,>12.5 µg/mL
CCCCOCC(O)CO,,,,MIC,,H37Rv,50 µg/mL
Cc1ccc2oc(=O)c(-c3ccccc3)nc2c1,BACTEC,,12.5 µg/mL,inhibition,,H37Rv,-19%
CC(CNC1CCCCCCC1)NC[C@@H]1CC[C@H]2C[C@@H]1C2(C)C,,,,MIC,,,12.5 µM
Nc1c(S(=O)(=O)O)cc(Nc2ccc(S(=O)(=O)O)c(Nc3nc(Cl)nc(Cl)n3)c2)c2c1C(=O)c1ccccc1C2=O,BACTEC,,12.5 µg/mL,inhibition,,H37Rv,7%
CCCCC(CC)CN1CN(CC(CC)CCCC)CC(C)(NCCNC(C)Cc2ccc(Cl)cc2)C1,,,,MIC,,,50 µM
Cc1c(NC(=S)NC(=O)c2ccc([N+](=O)[O-])cc2)c(=O)n(-c2ccccc2)n1C,BACTEC,,12.5 µg/mL,inhibition,,H37Rv,4%
CCN(CC)Cc1ccc(O)c(-c2ccccc2)c1.Cl,,,,MIC,,H37Rv,>100 µg/mL
CC(NCCNCc1ccccc1F)C12CC3CC(CC(C3)C1)C2,,,,MIC,,,50 µM
O=C(c1cccc(O)c1)c1ccc(O)c(O)c1O,,,,MIC,,H37Rv,25 µg/mL
C=CCNCCNCCC(c1ccccc1)c1ccccc1,,,,MIC,,,50 µM
O=C(O)c1cc(-c2ccccc2)nc2c(O)cccc12,,,,MIC,,H37Rv,>100 µg/mL
CC1CCCC(NCCNCc2ccc(C(F)(F)F)cc2)C1C,,,,MIC,,,>50 µM
Cl.N=C1C=C(N)C(=O)c2ccccc21,,,,MIC,,H37Rv,100 µg/mL
CCOC(=O)Nc1cc(NCC(=O)CN(C)c2ccc(C(=O)OC)cc2)c([N+](=O)[O-])c(N)n1,,,,EC50,,H37Rv,>12.5 µg/mL
CC(N)c1cccs1.Cl,,,,MIC,,H37Rv,>1600 µg/mL
CC(=O)Oc1c(C)c(O)c(C(C)=O)c2c1C1(C)C(=O)C(C(C)=O)=C(O)C=C1O2,BACTEC,,,MIC,VERO,H37Rv,>12.5 µg/mL
c1cc[n+](CCSCC[n+]2ccccc2)cc1,,,,MIC,,H37Rv,>100 µg/mL
CO[C@@H]1/C=C\C=C(/C)C(=O)NC2=CC(=O)C(NCCCl)=C(C[C@@H](C)C[C@@H](OC)[C@H](O)[C@H](C)/C=C(\C)[C@H]1OC(N)=O)C2=O,BACTEC,,12.5 µg/mL,inhibition,,H37Rv,37%
O=C/C(Cl)=C(\Cl)C(=O)O,,,,MIC,,H37Rv,>100 µg/mL
COc1ccc(OC)c(CCNCCNCc2cccc(F)c2)c1,,,,MIC,,,12.5 µM
CC(C)c1ccc2c(c1)CC[C@H]1[C@](C)(CNCCN[C@@H](C)C3CCCCC3)CCC[C@]21C,,,,MIC,,,25 µM
Cc1cccc(-n2[nH]c(NC(=O)c3cccc(N)c3)cc2=O)c1,,,,MIC,,H37Rv,>100 µg/mL

For reference, 10 entries again:

{"smiles": "COc1ccccc1CCNCCNCCc1ccc(Cl)cc1Cl", "read-out": "MIC", "value": "50 µM"}
{"smiles": "Cc1cc(C)nc(NS(=O)(=O)c2ccc(NC(=O)c3cccn4c(=O)c5ccccc5nc34)cc2)n1", "method": "resazurin", "read-out": "MIC bound", "strain or isolate": "H37Rv", "value": ">6.25 µg/mL"}
{"smiles": "CCCCOCC(O)CO", "read-out": "MIC", "strain or isolate": "H37Rv", "value": "50 µg/mL"}
{"smiles": "CC(C)c1ccc2c(c1)CC[C@H]1[C@](C)(CNCCNCc3ccc4c(c3)OCO4)CCC[C@]21C", "read-out": "MIC", "value": "12.5 µM"}
{"smiles": "Cc1ccc2c(=O)n(-c3cccc(Cl)c3)c(=O)oc2c1", "read-out": "MIC", "strain or isolate": "CNCTC MY331/88", "value": "16 µM"}
{"smiles": "CC1CCCC(NCCNCc2ccc(C(F)(F)F)cc2)C1C", "read-out": "MIC", "value": ">50 µM"}
{"smiles": "Cc1ccc(C(=O)Nc2ccc(S(=O)(=O)O)c3cc(S(=O)(=O)O)cc(S(=O)(=O)O)c23)cc1NC(=O)c1cccc(NC(=O)Nc2cccc(C(=O)Nc3cc(C(=O)Nc4ccc(S(=O)(=O)O)c5cc(S(=O)(=O)O)cc(S(=O)(=O)O)c45)ccc3C)c2)c1", "method": "BACTEC", "tested at": "12.5 µg/mL", "read-out": "inhibition", "strain or isolate": "H37Rv", "value": "0%"}
{"smiles": "COc1ccc(C2Oc3ccccc3C(=O)C2O)cc1", "tested at": "12.5 µg/mL", "read-out": "inhibition", "strain or isolate": "H37Rv", "value": "48%"}
{"smiles": "CCCCCCCCCCCNCCNC(C)Cc1ccc(Cl)cc1", "read-out": "MIC", "value": "50 µM"}
{"smiles": "O=C(c1cccc(O)c1)c1ccc(O)c(O)c1O", "read-out": "MIC", "strain or isolate": "H37Rv", "value": "25 µg/mL"}

Percent inhibition refers to the dose given; in toxicity tests it is the harm to the cells. Blank or dashed fields: not listed here. MIC bound comes from a single tested concentration. Lines come from different laboratories, so protocols vary.